# System: HepG2-NTCP cells
# Assay: TMT-based phosphoproteome profiling of HBV-infected vs mock HepG2-NTCP (HBV/mock ratio)
# Set-up: species or system human
# Settings: phosphosite abundance ratio of host protein, HBV-infected vs mock HepG2-NTCP, 7dpi, sheet Up-regulated
row,Molecule,HBV/mock
1,"P85037 2xPhospho [S441(99.6); S445(99.6)] (protein, UniProt P85037 2-733, looked up, phosphorylated S441, S445) Forkhead box protein K1: AEVGEDSGARALLALRSAPCSPVLCAAAAAAAFPAAAPPPAPAQPQPPPGPPPPPPPPLPPGAIAGAGSSGGSSGVSGDSAVAGAAPALVAAAAASVRQSPGPALARLEGREFEFLMRQPSVTIGRNSSQGSVDLSMGLSSFISRRHLQLSFQEPHFYLRCLGKNGVFVDGAFQRRGAPALQLPKQCTFRFPSTAIKIQFTSLYHKEEAPASPLRPLYPQISPLKIHIPEPDLRSMVSPVPSPTGTISVPNSCPASPRGAGSSSYRFVQNVTSDLQLAAEFAAKAASEQQADTSGGDSPKDESKPPFSYAQLIVQAISSAQDRQLTLSGIYAHITKHYPYYRTADKGWQNSIRHNLSLNRYFIKVPRSQEEPGKGSFWRIDPASEAKLVEQAFRKRRQRGVSCFRTPFGPLSSRSAPASPTHPGLMSPRSGGLQTPECLSREGSPIPHDPEFGSKLASVPEYRYSQSAPGSPVSAQPVIMAVPPRPSSLVAKPVAYMPASIVTSQQPAGHAIHVVQQAPTVTMVRVVTTSANSANGYILTSQGAAGGSHDAAGAAVLDLGSEARGLEEKPTIAFATIPAAGGVIQTVASQMAPGVPGHTVTILQPATPVTLGQHHLPVRAVTQNGKHAVPTNSLAGNAYALTSPLQLLATQASSSAPVVVTRVCEVGPKEPAAAVAATATTTPATATTASASASSTGEPEVKRSRVEEPSGAVTTPAGVIAAAGPQGPGTGE",1.308
2,"Q99988 1xPhospho [S219(100)] (protein, UniProt Q99988 195-308, looked up, phosphorylated S219) Growth/differentiation factor …: ARARNGDHCPLGPGRCCRLHTVRASLEDLGWADWVLSPREVQVTMCIGACPSQFRAANMHAQIKTSLHRLKPDTVPAPCCVPASYNPMVLIQKTDTGVSLQTYDDLLAKDCHCI",3.937
3,"Q14161 2xPhospho [S/T] (protein, UniProt Q14161 1-759, looked up, diphosphorylated) ARF GTPase-activating protein …: MSKRLRSSEVCADCSGPDPSWASVNRGTFLCDECCSVHRSLGRHISQVRHLKHTPWPPTLLQMVETLYNNGANSIWEHSLLDPASIMSGRRKANPQDKVHPNKAEFIRAKYQMLAFVHRLPCRDDDSVTAKDLSKQLHSSVRTGNLETCLRLLSLGAQANFFHPEKGNTPLHVASKAGQILQAELLAVYGADPGTQDSSGKTPVDYARQGGHHELAERLVEIQYELTDRLAFYLCGRKPDHKNGQHFIIPQMADSSLDLSELAKAAKKKLQSLSNHLFEELAMDVYDEVDRRETDAVWLATQNHSALVTETTVVPFLPVNPEYSSTRNQGRQKLARFNAHEFATLVIDILSDAKRRQQGSSLSGSKDNVELILKTINNQHSVESQDNDQPDYDSVASDEDTDLETTASKTNRQKSLDSDLSDGPVTVQEFMEVKNALVASEAKIQQLMKVNNNLSDELRIMQKKLQTLQSENSNLRKQATTNVYQVQTGSEYTDTSNHSSLKRRPSARGSRPMSMYETGSGQKPYLPMGEASRPEESRMRLQPFPAHIGRSALVTSSSSLPSFPSTLSWSRDESARRASRLEKQNSTPESDYDNTPNDMEPDGMGSSRKGRQRSMVWPGDGLVPDTAEPHVAPSPTLPSTEDVIRKTEQITKNIQELLRAAQENKHDSYIPCSERIHVAVTEMAALFPKKPKSDMVRTSLRLLTSSAYRLQSECKKTLPGDPGSPTDVQLVTQQVIQCAYDIAKAAKQLVTITTKENNN",1.489
4,"Q8TBA6 1xPhospho [S116(100)] (protein, UniProt Q8TBA6 2-731, looked up, phospho S116) Golgin subfamily A member 5: SWFVDLAGKAEDLLNRVDQGAATALSRKDNASNIYSKNTDYTELHQQNTDLIYQTGPKSTYISSAADNIRNQKATILAGTANVKVGSRTPVEASHPVENASVPRPSSHFVRRKKSEPDDELLFDFLNSSQKEPTGRVEIRKEKGKTPVFQSSQTSSVSSVNPSVTTIKTIEENSFGSQTHEAASNSDSSHEGQEESSKENVSSNAACPDHTPTPNDDGKSHELSNLRLENQLLRNEVQSLNQEMASLLQRSKETQEELNKARARVEKWNADHSKSDRMTRGLRAQVDDLTEAVAAKDSQLAVLKVRLQEADQLLSTRTEALEALQSEKSRIMQDQSEGNSLQNQALQTFQERLHEADATLKREQESYKQMQSEFAARLNKVEMERQNLAEAITLAERKYSDEKKRVDELQQQVKLYKLNLESSKQELIDYKQKATRILQSKEKLINSLKEGSGFEGLDSSTASSMELEELRHEKEMQREEIQKLMGQIHQLRSELQDMEAQQVNEAESAREQLQDLHDQIAGQKASKQELETELERLKQEFHYIEEDLYRTKNTLQSRIKDRDEEIQKLRNQLTNKTLSNSSQSELENRLHQLTETLIQKQTMLESLSTEKNSLVFQLERLEQQMNSASGSSSNGSSINMSGIDNGEGTRLRNVPVLFNDTETNLAGMYGKVRKAASSIDQFSIRLGIFLRRYPIARVFVIIYMALLHLWVMIVLLTYTPEMHHDQPYGK",1.388
5,"O00178 2xPhospho [S] (protein, UniProt O00178 1-669, looked up, diphosphorylated) GTP-binding protein 1: MATERSRSAMDSPVPASMFAPEPSSPGAARAAAAAARLHGGFDSDCSEDGEALNGEPELDLTSKLVLVSPTSEQYDSLLRQMWERMDEGCGETIYVIGQGSDGTEYGLSEADMEASYATVKSMAEQIEADVILLRERQEAGGRVRDYLVRKRVGDNDFLEVRVAVVGNVDAGKSTLLGVLTHGELDNGRGFARQKLFRHKHEIESGRTSSVGNDILGFDSEGNVVNKPDSHGGSLEWTKICEKSTKVITFIDLAGHEKYLKTTVFGMTGHLPDFCMLMVGSNAGIVGMTKEHLGLALALNVPVFVVVTKIDMCPANILQETLKLLQRLLKSPGCRKIPVLVQSKDDVIVTASNFSSERMCPIFQISNVTGENLDLLKMFLNLLSPRTSYREEEPAEFQIDDTYSVPGVGTVVSGTTLRGLIKLNDTLLLGPDPLGNFLSIAVKSIHRKRMPVKEVRGGQTASFALKKIKRSSIRKGMVMVSPRLNPQASWEFEAEILVLHHPTTISPRYQAMVHCGSIRQTATILSMDKDCLRTGDKATVHFRFIKTPEYLHIDQRLVFREGRTKAVGTITKLLQTTNNSPMNSKPQQIKMQSTKKGPLTKRDEGGPSGGPAVGAPPPGDEASSVGAGQPAASSNLQPQPKPSSGGRRRGGQRHKVKSQGACVTPASGC",1.452
6,"Q9UGU5 2xPhospho [S512(100); S/T] (protein, UniProt Q9UGU5 1-601, looked up, diphosphorylated incl. S512) HMG domain-containing protein …: MAYDDSVKKEDCFDGDHTFEDIGLAAGRSQREKKRSYKDFLREEEEIAAQVRNSSKKKLKDSELYFLGTDTHKKKRKHSSDDYYYGDISSLESSQKKKKKSSPQSTDTAMDLLKAITSPLAAGSKPSKKTGEKSSGSSSHSESKKEHHRKKVSGSSGELPLEDGGSHKSKKMKPLYVNTETLTLREPDGLKMKLILSPKEKGSSSVDEESFQYPSQQATVKKSSKKSARDEQGALLLGHELQSFLKTARKKHKSSSDAHSSPGPEGCGSDASQFAESHSANLDLSGLEPILVESDSSSGGELEAGELVIDDSYREIKKKKKSKKSKKKKDKEKHKEKRHSKSKRSLGLSAVPVGEVTVTSGPPPSIPYAGAAAPPLPLPGLHTDGHSEKKKKKEEKDKERERGEKPKKKNMSAYQVFCKEYRVTIVADHPGIDFGELSKKLAEVWKQLPEKDKLIWKQKAQYLQHKQNKAEATTVKRKASSSEGSMKVKASSVGVLSPQKKSPPTTMLLPASPAKAPETEPIDVAAHLQLLGESLSLIGHRLQETEGMVAVSGSLSVLLDSIICALGPLACLTTQLPELNGCPKQVLSNTLDNIAYIMPGL",1.332
7,"O43719 2xPhospho [S713(100); S714(100)] (protein, UniProt O43719 2-755, looked up, phosphorylated S713, S714) 17S U2 SnRNP complex …: SGTNLDGNDEFDEQLRMQELYGDGKDGDTQTDAGGEPDSLGQQPTDTPYEWDLDKKAWFPKITEDFIATYQANYGFSNDGASSSTANVEDVHARTAEEPPQEKAPEPTDARKKGEKRKAESGWFHVEEDRNTNVYVSGLPPDITVDEFIQLMSKFGIIMRDPQTEEFKVKLYKDNQGNLKGDGLCCYLKRESVELALKLLDEDEIRGYKLHVEVAKFQLKGEYDASKKKKKCKDYKKKLSMQQKQLDWRPERRAGPSRMRHERVVIIKNMFHPMDFEDDPLVLNEIREDLRVECSKFGQIRKLLLFDRHPDGVASVSFRDPEEADYCIQTLDGRWFGGRQITAQAWDGTTDYQVEETSREREERLRGWEAFLNAPEANRGLRRSDSVSASERAGPSRARHFSEHPSTSKMNAQETATGMAFEEPIDEKKFEKTEDGGEFEEGASENNAKESSPEKEAEEGCPEKESEEGCPKRGFEGSCSQKESEEGNPVRGSEEDSPKKESKKKTLKNDCEENGLAKESEDDLNKESEEEVGPTKESEEDDSEKESDEDCSEKQSEDGSEREFEENGLEKDLDEEGSEKELHENVLDKELEENDSENSEFEDDGSEKVLDEEGSEREFDEDSDEKEEEEDTYEKVFDDESDEKEDEEYADEKGLEAADKKAEEGDADEKLFEESDDKEDEDADGKEVEDADEKLFEDDDSNEKLFDEEEDSSEKLFDDSDERGTLGGFGSVEEGPLSTGSSFILSSDDDDDDI",1.312
8,"P08833 1xPhospho [S194(100)] (protein, UniProt P08833 26-259, looked up, phosphorylated S194) Insulin-like growth …: APWQCAPCSAEKLALCPPVSASCSEVTRSAGCGCCPMCALPLGAACGVATARCARGLSCRALPGEQQPLHALTRGQGACVQESDASAPHAAEAGSPESPESTEITEEELLDNFHLMAPSEEDHSILWDAISTYDGSKALHVTNIKKWKEPCRIELYRVVESLAKAQETSGEEISKFYLPNCNKNGFYHSRQCETSMDGEAGLCWCVYPWNGKRIPGSPEIRGDPNCQIYFNVQN",2.1963
9,"P19823 1xPhospho [S60(100)] (protein, UniProt P19823 55-702, looked up, phosphorylated S60) Inter-alpha-trypsin inhibitor …: SLPGESEEMMEEVDQVTLYSYKVQSTITSRMATTMIQSKVVNNSPQPQNVVFDVQIPKGAFISNFSMTVDGKTFRSSIKEKTVGRALYAQARAKGKTAGLVRSSALDMENFRTEVNVLPGAKVQFELHYQEVKWRKLGSYEHRIYLQPGRLAKHLEVDVWVIEPQGLRFLHVPDTFEGHFDGVPVISKGQQKAHVSFKPTVAQQRICPNCRETAVDGELVVLYDVKREEKAGELEVFNGYFVHFFAPDNLDPIPKNILFVIDVSGSMWGVKMKQTVEAMKTILDDLRAEDHFSVIDFNQNIRTWRNDLISATKTQVADAKRYIEKIQPSGGTNINEALLRAIFILNEANNLGLLDPNSVSLIILVSDGDPTVGELKLSKIQKNVKENIQDNISLFSLGMGFDVDYDFLKRLSNENHGIAQRIYGNQDTSSQLKKFYNQVSTPLLRNVQFNYPHTSVTDVTQNNFHNYFGGSEIVVAGKFDPAKLDQIESVITATSANTQLVLETLAQMDDLQDFLSKDKHADPDFTRKLWAYLTINQLLAERSLAPTAAAKRRITRSILQMSLDHHIVTPLTSLVIENEAGDERMLADAPPQDPSCCSGALYYGSKVVPDSTPSWANPSPTPVISMLAQGSQVLESTPPPHVMRVEND",7.369
